Laboratory results: publication PMC8865542, “The Large Nonstructural Protein (NS1) of Human Bocavirus 1 Directly Interacts with Ku70, Which Plays an Important Role in Virus Replication in Human Airway Epithelia” (Journal of Virology, 2021)

B1: Ku70 with Strep-tag II (natural protein, UniProt P12956 1-609, looked up)
chain: MSGWESYYKTEGDEEAEEEQEENLEASGDYKYSGRDSLIFLVDASKAMFESQSEDELTPFDMSIQCIQSVYISKIISSDRDLLAVVFYGTEKDKNSVNFKNIYVLQELDNPGAKRILELDQFKGQQGQKRFQDMMGHGSDYSLSEVLWVCANLFSDVQFKMSHKRIMLFTNEDNPHGNDSAKASRARTKAGDLRDTGIFLDLMHLKKPGGFDISLFYRDIISIAEDEDLRVHFEESSKLEDLLRKVRAKETRKRALSRLKLKLNKDIVISVGIYNLVQKALKPPPIKLYRETNEPVKTKTRTFNTSTGGLLLPSDTKRSQIYGSRQIILEKEETEELKRFDDPGLMLMGFKPLVLLKKHHYLRPSLFVYPEESLVIGSSTLFSALLIKCLEKEVAALCRYTPRRNIPPYFVALVPQEEELDDQKIQVTPPGFQLVFLPFADDKRKMPFTEKIMATPEQVGKMKAIVEKLRFTYRSDSFENPVLQQHFRNLEALALDLMEPEQAVDLTLPKVEAMNKRLGSLVDEFKELVYPPDYNPEGKVTKRKHDNEGSGSKRPKVEYSEEELKTHISKGTLGKFTVPMLKEACRAYGLKSGLKKQELLEALTKHFQD
notes: also called Ku70^Strep; full-length Ku70; source: E. coli BL21(DE3), purified (Strep-Tactin Superflow); not shown: Strep-tag II, C-terminal, kept
B2: Ku70 domain A (α/β domain) with Strep-tag II (domain or fragment, UniProt P12956 1-250, looked up)
chain: MSGWESYYKTEGDEEAEEEQEENLEASGDYKYSGRDSLIFLVDASKAMFESQSEDELTPFDMSIQCIQSVYISKIISSDRDLLAVVFYGTEKDKNSVNFKNIYVLQELDNPGAKRILELDQFKGQQGQKRFQDMMGHGSDYSLSEVLWVCANLFSDVQFKMSHKRIMLFTNEDNPHGNDSAKASRARTKAGDLRDTGIFLDLMHLKKPGGFDISLFYRDIISIAEDEDLRVHFEESSKLEDLLRKVRAKE
notes: also called Strep-tagged domain A; source: E. coli BL21(DE3), purified (Strep-Tactin agarose); not shown: Strep-tag II, C-terminal, kept

Biological target: T1, HBoV1 NS[…] with Flag and His tags (human bocavirus 1 (HBoV1))
T1 construct: source: E. coli BL21/DE3 pLysS, purified (His tag, Sephadex G75)
Experiment: BLI
Conditions: both partners purified

Row | Binder | Kd [nM]
1 | B1 | 160
2 | B2 | 670
